Anti-infective test results gathered from many reports (values: NIAID ChemDB through PubChem).

Common to all: growth or infection tests; species: Mycobacterium tuberculosis

MIC bound: limit read from a one-dose screen. Neighbouring rows are from separate reports. Percent inhibition refers to the dose given; in toxicity tests it is the harm to the cells. Two numbers with a dash give a range or band. ECn is the concentration giving n% inhibition of infection, replication or growth. MIC50, MIC90 and the like: level of inhibition, or share of isolates inhibited. An empty or dashed field is not shown.

SMILES	method	strain or isolate	read-out	tested at	value
CCOC(=O)c1cc(C(N)=O)n2ccc(-c3ccncc3)cc12	resazurin	H37Rv (ATCC 27294)	EC90		>100 µg/mL
Clc1ccc(COC(Cn2ccnc2)c2ccc(Cl)cc2Cl)c(Cl)c1	resazurin	H37Rv	MIC bound		<6.25 µg/mL
CCOC(=O)c1ccc2c(c1)nc(-c1ccc(O)cc1O)n2CCN1CCCC1=O	resazurin / fluorescence	H37Rv	EC50		>100 µM
CCOC(=O)CSc1nnc(-c2ncc([N+](=O)[O-])n2C)s1		H37Rv	MIC		1.56 µg/mL
CNC(=O)c1n[nH]c(=S)[nH]c1=O	BACTEC	H37Rv	inhibition	12.5 µg/mL	7%
NC[C@H]1O[C@H](O[C@H]2[C@H](O)[C@@H](O[C@H]3O[C@H](CO)[C@@H](O)[C@H](N)[C@H]3O)[C@H](N)C[C@@H]2N)[C@H](O)[C@@H](O)[C@@H]1O	fluorescence		MIC		1.7 µM
CCOC(=O)c1ccc2c(c1)nc(-c1ccc([N+](=O)[O-])cc1)n2CCN1CCCC1=O	resazurin / fluorescence	H37Rv	EC90		>100 µM
O=C1OC(c2ccccc2)=C/C1=C/c1cc2ccccc2nc1Cl	resazurin	H37Rv	EC50		58.29 µg/mL
COc1cc2ccnc3c2c(c1OC(=O)CSc1ccccc1)N(C)C=C3		H37Rv	MIC		>128 µg/mL
CC(C)(C)OC(=O)N1CCCC1C(=O)N1CCCC1C(=O)Oc1ccccc1	BACTEC	H37Rv	inhibition	12.5 µg/mL	1%
CCCc1cc(-c2nc(-c3ccc(OCCN4CCCC4)cc3)cs2)ccn1	turbidity	H37Rv	MIC80		8 µg/mL
CC(=O)c1c(OCC(O)CN(CCO)CCO)ccc2c(C)cc(=O)oc12	resazurin	H37Rv	MIC bound		>6.25 µg/mL
CCOC(=O)c1ccc2c(c1)nc(-c1ccc(C(F)(F)F)cc1)n2CCN1CCCOC1	resazurin / fluorescence	H37Rv	EC50		16.14 µM
C#CCC(C)(O)/C=C/C1=C(C)CCCC1(C)C		H37Rv	inhibition	6.25 µg/mL	-1%
c1ccc(C(Sc2nnc(-c3ccco3)o2)c2ccccc2)cc1	fluorescence		inhibition	20 µM	24%
Clc1ccc(Nc2cc3nc4ccccc4n(-c4ccc(Cl)c(Cl)c4)c-3cc2=NC2CCNCC2)cc1Cl		MTB11 (EMB-resistant)	MIC		2 µg/mL
COc1ccc2nc(Cl)c(/C=C3/C=C(c4ccc(C)cc4)OC3=O)cc2c1	resazurin	H37Rv	EC50		>100 µg/mL
CCN(CC)C(=S)N/N=C/c1ccc([N+](=O)[O-])o1			MIC		100 µg/mL
CCc1ccc(C(=O)Oc2c(OC)cc3ccnc4c3c2N(C)C=C4)cc1		H37Rv	MIC		>128 µg/mL
C[C@@H](O)[C@H]1C(=O)N2C(C(=O)O)=C(SCC(=O)OC3CCCCC3)[C@H](C)[C@H]12	broth dilution		MIC		1–2 µg/mL
Cn1c([N+](=O)[O-])cnc1-c1nnc(SCC(=O)OCc2ccccc2)s1		H37Rv	MIC		>6.25 µg/mL
CCOC(=O)c1ccc2nc(-c3ccc(O)cc3O)[nH]c2c1	resazurin / fluorescence	H37Rv	EC50		>100 µM
CCCCOC(=O)CSc1nnc(-c2ncc([N+](=O)[O-])n2C)s1		H37Rv	MIC		0.78 µg/mL
N[C@@H]1CONC1=O	resazurin / fluorescence	H37Rv	MIC		>100 µM
CCCCCCCCCCSc1nc(N)nc2c1ncn2CC(=O)N[C@H](CO)C(=O)OC	BACTEC	H37Rv	inhibition	6.25 µg/mL	0%
COC(=O)CSc1nnc(-c2ccc([N+](=O)[O-])o2)s1		H37Rv	MIC		3.13 µg/mL
COC(=O)[C@H]1[C@H]2C[C@@H]3c4[nH]c5cc(OC)ccc5c4CCN3C[C@H]2C[C@@H](OC(=O)c2cc(OC)c(OC)c(OC)c2)[C@@H]1OC			MIC90		8 µg/mL
Cc1ccc(C2=C/C(=C/c3cc4ccccc4nc3Cl)C(=O)O2)cc1	resazurin	H37Rv	EC50		>100 µg/mL
CCCCCCCCCCOc1nc(N)nc2c1ncn2CC(=O)N[C@@H](Cc1ccccc1)C(=O)OC	BACTEC	H37Rv	inhibition	6.25 µg/mL	0%
CCN(CC)C(=O)Oc1c(OC)cc2ccnc3c2c1N(C)C=C3		H37Rv	MIC		>128 µg/mL
CCOC(=O)Nc1cc(NC(C)=O)c2nc(C3CCCCC3)[nH]c2c1	resazurin	H37Rv	MIC99		1.6 µM
Cc1ccc([N+](=O)[O-])cc1NC(=O)COc1ccc([N+](=O)[O-])c(F)c1	broth dilution	H37Rv	MIC90		64 µg/mL
CC(CC(=N)N)NC(=O)C1CCC(N)=N1.O=S(=O)(O)O	BACTEC	H37Rv	MIC bound		>12.5 µg/mL
CO[C@H]1/C=C/O[C@@]2(C)Oc3c(C)c(O)c4c(=O)c(c5oc6cc(N7CCN(CC(C)C)CC7)cc(=O)c6nc5c4c3=C2O)NC(=O)/C(C)=C\C=C\[C@H](C)[C@H](O)[C@@H](C)[C@@H](O)[C@@H](C)[C@H](OC(C)=O)[C@@H]1C		2237 (rifampicin-susceptible)	MBC		0.007 µg/mL
CC(=O)Nc1ccc(/C=N/NC(N)=S)cc1F		Ethambutol-resistant	MIC		0.2 µg/mL
Cc1cc2cc3c4c(nn5cnnc5c4c2o1)-c1ccccc1CC3	BACTEC	H37Rv	inhibition	12.5 µg/mL	-22%
CCOC(=O)c1ccc2nc(-c3ccc(Cl)cc3)[nH]c2c1	resazurin / fluorescence	H37Rv	EC90		83.66 µM
NC[C@@H]1O[C@H](O[C@H]2[C@@H](O)[C@H](O[C@@H]3[C@@H](O)[C@H](N)C[C@H](N)[C@H]3O[C@H]3O[C@H](CO)[C@@H](O)[C@H](O)[C@H]3N)O[C@@H]2CO)[C@H](N)[C@@H](O)[C@@H]1O			MIC90		32 µg/mL
O=C(c1cccc(Cl)c1)c1c(O)c2ccccc2oc1=O	BACTEC	H37Rv	MIC bound		>12.5 µg/mL
COc1cc2ccnc3c2c(c1OC(=O)c1ccc(F)cc1)N(C)C=C3		H37Rv	MIC		>128 µg/mL
C[C@@H](O)[C@H]1C(=O)N2C(C(=O)O)=C(SCCO)S[C@H]12	broth dilution		MIC		2–4 µg/mL
CC(=O)Nc1ccc(/C=N/NC(N)=S)cc1			MIC		10 µg/mL
c1ccc(CN(CCN(Cc2ccccn2)Cc2ccccn2)Cc2ccccn2)nc1			MIC50		4 µg/mL
CN(Cc1nnc(-c2ccco2)o1)Cc1c(F)cccc1Cl	fluorescence		MIC		0.8 µM
CCCCCCCCCCSc1nc(N)nc2c1ncn2CC(=O)N[C@@H](C)C(=O)OC	BACTEC	H37Rv	inhibition	6.25 µg/mL	0%
Cc1cc(NS(=O)(=O)c2ccc(NC(=O)C(C)(C)C)cc2)no1		H37Rv	MIC		10 µg/mL
CCCSC1=C(C(=O)O)N2C(=O)[C@H]([C@@H](C)O)[C@H]2S1	broth dilution		MIC		0.5–1 µg/mL
O=C(O)CCC(=O)NCCCCOCc1cn(C2CCC(O)C(CO)O2)c(=O)[nH]c1=O	fluorescence	H37Rv	MIC		50 µg/mL
COc1cc2c(cc1OC)-c1cc3ccc(OC)c(OC)c3c[n+]1CC2			MIC50		64 µg/mL
N[C@@H]1CONC1=O	fluorescence		MIC		>20 µM
O=C(N/N=C/c1ccc([N+](=O)[O-])o1)N1CCCC1			MIC		10 µg/mL
COc1cc2ccnc3c2c(c1OC(=O)c1ccc(F)c(F)c1)N(C)C=C3		H37Rv	MIC		>128 µg/mL
CCCCCCCCCCSc1nc(N)nc2c1ncn2CC(=O)N[C@@H](Cc1ccccc1)C(=O)OC	BACTEC	H37Rv	inhibition	6.25 µg/mL	0%
CC(=O)NC[C@H]1CN(c2ccc(N3CCOCC3)c(F)c2)C(=O)O1			MIC90		0.25 µg/mL
CCSC1=C(C(=O)O)N2C(=O)[C@H]([C@@H](C)O)[C@H]2S1	broth dilution		MIC		8–16 µg/mL
COc1cc2oc3c(c(=O)c2c(O)c1/C=C/C(C)C)C(C=C(C)C)Oc1cc(O)ccc1-3		CS-R	MIC		>12.5 µg/mL
Cc1ccc(C2=C/C(=C/c3cc4cc(Cl)ccc4nc3Cl)C(=O)O2)cc1	resazurin	H37Rv	EC50		>100 µg/mL
CCOC(=O)c1ccc2nc(-c3ccc(OC(F)(F)F)cc3)[nH]c2c1	resazurin / fluorescence	H37Rv	EC50		>100 µM
O=[N+]([O-])c1ccc(/C=N/NC(=S)N2CCCCC2)o1			MIC		100 µg/mL
CCc1sc(-c2nnc(COC(=O)CNC(=O)c3ccc4c(c3)OCO4)o2)cc1C	fluorescence		inhibition	20 µM	15%
Cc1cc(S(=O)(=O)Nc2nnc3cc(C(F)(F)F)cc(C)n23)c(S)cc1Cl	BACTEC	H37Rv	MIC bound		>12.5 µg/mL
CCOC(=O)CSc1nnc(-c2ccc([N+](=O)[O-])o2)s1		H37Rv	MIC		1.56 µg/mL
C1=NCCCCCCCN=Cc2ccccc2NCCNc2ccccc21	BACTEC	H37Rv	MIC bound		>12.5 µg/mL
CC(C)(C)C(=O)Nc1ccc(C(=O)O)c(O)c1		H37Rv	MIC		5 µg/mL
CN(C)CCC(=O)C(=Cc1ccco1)C(=O)CCN(C)C	resazurin	H37Rv	inhibition	6.25 µg/mL	2%
COc1ccc2nc(C)cc(-c3cnccc3C(=O)NC(=S)N=N)c2c1		H37Rv	MIC		5 µg/mL
CP1(=S)CCC2=C1CCc1cc(O)ccc12	resazurin	H37Rv	inhibition	6.25 µg/mL	12%
CCOC(=O)c1ccc2nc(-c3ccc(Br)cc3)[nH]c2c1	resazurin / fluorescence	H37Rv	EC90		>100 µM
CC(=O)Nc1nc([N+](=O)[O-])c(C(C)C)s1	resazurin	H37Rv	MIC bound		>6.25 µg/mL
Nc1nc(OCc2ccccc2)c2[nH]cnc2n1	BACTEC	H37Rv	inhibition	6.25 µg/mL	0%
C[C@]12CCC3C[C@]1(C[C@@]3(C)O)[C@H](O)C[C@@H]1[C@@]3(C)CCC[C@]12OC3=O	BACTEC	H37Rv	inhibition	12.5 µg/mL	2%
CCN=c1cc2n(-c3ccc(Cl)cc3)c3ccccc3nc-2cc1Nc1ccc(Cl)cc1		MTB9 (RIF-resistant)	MIC		0.06 µg/mL
COP(=O)(OC)Oc1c(O)c2cccc3c(O)c(OP(=O)(OC)OC)c4cccc1c4c23	BACTEC	H37Rv	inhibition	6.25 µg/mL	0%
CCCCCCCCCCSc1nc(N)nc2c1ncn2CC(=O)N[C@H](Cc1ccccc1)C(=O)OC	BACTEC	H37Rv	inhibition	6.25 µg/mL	0%
c1ccc(OP2(Oc3ccccc3)=NP(Oc3ccccc3)(Oc3ccccc3)=NP(Oc3ccccc3)(Oc3ccccc3)=N2)cc1	BACTEC	H37Rv	MIC		≥128 µg/mL
COc1ccc2nc(Cl)c(/C=C3/C=C(c4ccccc4)OC3=O)cc2c1	resazurin	H37Rv	EC50		>100 µg/mL
Cc1cccc2c(=O)c3cccc(CC(=O)O)c3oc12	BACTEC	H37Rv	inhibition	12.5 µg/mL	0%
COC(=O)[C@H]1[C@H]2C[C@@H]3c4[nH]c5cc(OC)ccc5c4CCN3C[C@H]2C[C@@H](OC(=O)/C=C/c2cc(OC)c(OC)c(OC)c2)[C@@H]1OC			MIC90		64 µg/mL
CCOC(=O)C1C(=O)CC2c3nc4ccccc4cc3CN2C1=O	resazurin	H37Rv	MIC bound		>6.25 µg/mL
Cc1c(CN2CCN(C)CC2)cc(-c2ccc(Cl)cc2)n1-c1ccc(Cl)cc1		103471	MIC		0.7 µg/mL
O=S1(=O)c2cccc(c2)NC(=S)/C([n+]2ccccc2)=C(/[O-])c2ccc(cc2)CC2CCCCN21	BACTEC	H37Rv	MIC bound		>12.5 µg/mL
Clc1ccc(C(c2ccccc2)c2ccc(OCCN3CCCCC3)c3ccccc23)cc1	resazurin	H37Rv	MIC		>12.5 µg/mL

Repeating the final 5 entries:

SMILES | method | strain or isolate | read-out | tested at | value
COC(=O)[C@H]1[C@H]2C[C@@H]3c4[nH]c5cc(OC)ccc5c4CCN3C[C@H]2C[C@@H](OC(=O)/C=C/c2cc(OC)c(OC)c(OC)c2)[C@@H]1OC |  |  | MIC90 |  | 64 µg/mL
CCOC(=O)C1C(=O)CC2c3nc4ccccc4cc3CN2C1=O | resazurin | H37Rv | MIC bound |  | >6.25 µg/mL
Cc1c(CN2CCN(C)CC2)cc(-c2ccc(Cl)cc2)n1-c1ccc(Cl)cc1 |  | 103471 | MIC |  | 0.7 µg/mL
O=S1(=O)c2cccc(c2)NC(=S)/C([n+]2ccccc2)=C(/[O-])c2ccc(cc2)CC2CCCCN21 | BACTEC | H37Rv | MIC bound |  | >12.5 µg/mL
Clc1ccc(C(c2ccccc2)c2ccc(OCCN3CCCCC3)c3ccccc23)cc1 | resazurin | H37Rv | MIC |  | >12.5 µg/mL